Results of unrelated studies side by side (data: NIAID ChemDB).

All rows: whole-cell or culture tests; agent: HIV-1; read-out: fold resistance

Neighbouring rows are from separate reports. Fold resistance: result on the changed form divided by that on wild type. Blank or dashed fields: not listed here.

| SMILES | strain | mutations | cell line | method | result |
|---|---|---|---|---|---|
| Cc1cn([C@H]2C=C[C@@H](CO)O2)c(=O)[nH]c1=O | - | RT-delta67 K103N | MT-2 | p24 | 7.1 |
| COc1ccc(S(=O)(=O)N(CC(C)C)C[C@@H](O)[C@H](Cc2ccccc2)NC(=O)O[C@H]2CCO[C@H]3OCC[C@H]32)cc1 | NL4-3 | L10I I15V K20R L24I V32I M36I M46I L63P K70Q V82A I84V L89M | MT-4 | p24 / luminescence | >227 |
| C=C(C)OC(=O)N1c2cc(Cl)ccc2NC(=S)C1(C)C | A2(RT-L74V G190E) | RT-L74V G190E | H9 | p24 | >167 |
| CC(C)CN(C[C@@H](O)[C@H](Cc1ccccc1)NC(=O)O[C@H]1CCOC1)S(=O)(=O)c1ccc(N)cc1 | NL4-3 | L10I I54V K20R L24I V32I L33F M36I M46I I54M L63P K70Q V82I I84V L89M | MT-4 | p24 / luminescence | >27 |
| COC(=O)c1cc2c(c(OC)c1-c1ccc(N(C)C)cc1)OCO2 | NL4-3 | Y181C | C8166 | antigen | 45 |
| CC(C)=CCN1Cc2cc(Cl)cc3[nH]c(=S)n(c23)C[C@@H]1C | IIIB TIBO R82913 STR-B22 (RT L100I Y188H) | RT-L100I Y188H | CEM | syncytia | >250 |
| CC(C)=CCN1c2cc(Cl)cc3[nH]c(=S)n(c23)C[C@@H]1C | - | RT-L74V K103N | MT-4 | - | 8 |
| O=c1[nH]cnc2c1ncn2[C@H]1CC[C@@H](CO)O1 | Recombinant | RT-M41L A62V S68N G112S M184V | HeLa | luciferase | 0.3 |
| Cc1cn([C@H]2C[C@H](N=[N+]=[N-])[C@@H](CO)O2)c(=O)[nH]c1=O | IIIB TIBO R82913 STR-B22 (RT L100I Y188H) | RT-L100I Y188H | CEM | syncytia | 15 |
| Cc1ccc(-n2c(C)nnc2SCC(=O)Nc2ccc(S(N)(=O)=O)cc2Cl)c2ccccc12 | NL4-3 | RT-Y188L | HeLa + HeLa-JC53 | luciferase | 100 |
| Cn1c2ccccc2c2c1cc(C#N)c(=O)n2-c1ccc([N+](=O)[O-])cc1 | NRTI resistant | RT-K65R | HeLa | luciferase | 0.2 |
| Cc1ccnc2c1NC(=O)c1cccnc1N2C1CC1 | NL4-3 | RT-K103N | MAGI (CCR5) + MAGI | β-galactosidase | 70.5 |
| O=C1O[C@H]2[C@@H]3OC(=O)c4cc(O)c(O)c(O)c4-c4c(cc(O)c(O)c4O)C(=O)OC[C@H]2O[C@@H](OC(=O)c2cc(O)c(O)c(O)c2)[C@@H]3OC(=O)c2cc(O)c(O)c3c2[C@@H]2C1=CC(=O)[C@](O)(O3)C2(O)O | NRTI resistant (RT M41I L74V V106A T215V) ARP146 | RT-M41I L74V V106A T215V | MAGI | - | 0.96 |
| Cc1cc(Br)cc(S(=O)(=O)c2cccc(N)c2C#N)c1 | - | RT-K103N V108I | HeLa + HELA CD4+ | β-galactosidase | 436 |
| Nc1ccn([C@@H]2CC[C@H](CO)O2)c(=O)n1 | RTMC (RT D67N K70R T215F K219Q) | RT-D67N K70R T215F K219Q | HT4 + HT4 LacZ-1 | - | 0.8 |
| O=c1[nH]cnc2c1ncn2[C@H]1CC[C@@H](CO)O1 | HXB2-D (RT K65R M184V) | RT-K65R M184V | CBMC | p24 | 2.89 |
| Nc1ncnc2c1ncn2CC(CF)OCP(=O)(O)O | IIIB nevirapine-resistant (RT Y181C) | RT-Y181C | CEM | syncytia | 3.33 |
| Cc1cc(Cl)cc(S(=O)(=O)c2cccc(N)c2C#N)c1 | - | RT-V106A Y181C | HeLa + HELA CD4+ | β-galactosidase | 8.56 |
| CCN[C@H]1CO[C@@H]2OCC[C@H](OC(=O)N[C@@H](Cc3cccc(OC)c3)[C@H](O)CN(CC(C)C)S(=O)(=O)c3ccc4nc(NC(C)C)sc4c3)[C@@H]21 | NL4-3 | L10I I15V K20R L24I V32I M36I M46I L63P K70Q V82A I84V L89M | MT-4 | p24 / luminescence | 4.6 |
| C[C@H](Cn1cnc2c(N)ncnc21)OCP(=O)(O)O | Recombinant | RT-A62T V118I M184V | HeLa | luciferase | 1.1 |
| CC(C)OC(=O)OCOP(=O)(CO[C@H](C)Cn1cnc2c(N)ncnc21)OCOC(=O)OC(C)C | Saquinavir-resistant (G48V L90M) | RT-G48V L90M | MT-2 | p24 | 0.474 |
| CC(C)(C)C(=O)c1sc(C(=O)NCCc2ccccc2)c(O)c1O | - | INTG-N155S | - | - | 1 |
| Nc1ccn([C@H]2CC[C@@H](CO)O2)c(=O)n1 | JF26 (RT M41L D67N T69D L210W T215Y) | RT-M41L D67N T69D L210W T215Y | HELA-CD4+ | plaque count | 0.95 |
| O=c1[nH]cnc2c1ncn2[C@H]1CC[C@@H](CO)O1 | HXB2 | RT-K65R | MAGI (CCR5) + MAGI | β-galactosidase | 2.6 |
| Cc1cc(C)c2ccccc2c1-n1c(C)nnc1SCC(=O)Nc1ccc(S(N)(=O)=O)cc1Cl | NL4-3 | RT-Y188L | HeLa + HeLa-JC53 | luciferase | 40 |
| Nc1ccn([C@H]2CC[C@@H](CO)O2)c(=O)n1 | 184V (RT-M184V) | RT-M184V | HT4 + HT4 LacZ-1 | - | 2.11 |
| Nc1ccn([C@@H]2CO[C@H](CO)S2)c(=O)n1 | RF | RT-M184I | C8166 | p24 | 5.09 |
| Cc1cn([C@H]2C[C@H](N=[N+]=[N-])[C@@H](CO)O2)c(=O)[nH]c1=O | B9 (RT L100I V106A G190A) | RT-L100I V106A G190A | H9 | p24 | ~1 |
| CN[C@H]1CO[C@@H]2OCC[C@H](OC(=O)N[C@@H](Cc3ccccc3)[C@H](O)CN(CC(C)C)S(=O)(=O)c3ccc4nc(NC5CC5)sc4c3)[C@@H]21 | NL4-3 | L10F M46I I54V V82A | MT-4 | p24 / luminescence | 1.4 |
| CCc1cc(NCc2nc3c(Cl)ccc(Cl)c3o2)c(=O)[nH]c1C | NL4-3 | RT-V106A | MT-4 | p24 | 1 |
| CC(C)Oc1ccc(Cc2ccccc2)cc1C(=O)CC(=O)C(=O)O | - | INTG-S153 N155S | - | - | 47 |
| Nc1nc(NC2CC2)c2ncn([C@H]3C=C[C@@H](CO)C3)c2n1 | - | RT-delta67 K103N | MT-2 | p24 | 15 |
| COC(=O)N[C@H](C(=O)N[C@@H](Cc1ccccc1)[C@@H](O)CN(Cc1ccc(-c2ccccn2)cc1)NC(=O)[C@@H](NC(=O)OC)C(C)(C)C)C(C)(C)C | NL4-3 | L10I I15V K20R L24I V32I M36I M46I I54V I62V L63P K70Q V82A L88M | MT-4 | p24 / luminescence | >213 |
| Cc1ccc(-n2c(C)nnc2SCC(=O)Nc2ccc(C#N)cc2Cl)cc1 | NL4-3 | RT-K103N Y181C | HeLa + HeLa-JC53 | luciferase | 300 |
| Nc1nc(=O)n([C@@H]2CO[C@H](CO)S2)cc1F | HXB2D (RT-K65R) | RT-K65R | CBMC | RT activity | 3.21 |
| Cc1ccnc2c1NC(=O)c1cccnc1N2C1CC1 | TIBO R82150-resistant (RT A98G V108I) | RT-A98G V108I | CEM + CEM-SS | cytopathic effect / XTT | 60 |
| Cc1cn([C@@H]2O[C@H](CO[Si](C)(C)C(C)(C)C)C3(OS(=O)(=O)C=C3N)[C@H]2O[Si](C)(C)C(C)(C)C)c(=O)n(C)c1=O | IIIB TSAO-T(RT-E138K) | RT-E138K | CEM | syncytia | >1670 |
| COc1cc(C(F)(F)F)cc(S(=O)(=O)c2cccc(N)c2C#N)c1 | - | RT-P236L | HeLa + HELA CD4+ | β-galactosidase | 0.571 |
| Cc1ccc(NC(=O)CSc2nnc(C)n2-c2ccc(Cl)c3ccccc23)c(Cl)c1 | NL4-3 | RT-Y188L | HeLa + HeLa-JC53 | luciferase | 320 |
| CC(C)=CCN1Cc2cccc3[nH]c(=S)n(c23)C[C@@H]1C | IIIB TIBO R82150-resistant (RT L100I) | RT-L100I | CEM | syncytia | ≥250 |
| Cc1occc1C(=S)Nc1ccc(Cl)c(/C=N/OC(C)(C)C)c1 | Thiazolobenzimidazole-resistant (RT V108I) | RT-V108I | CEM + CEM-SS | cytopathic effect / XTT | 6 |
| Cc1cc(O)cc(S(=O)(=O)c2cccc(N)c2C#N)c1 | - | RT-Y188C | HeLa + HELA CD4+ | β-galactosidase | 6.35 |
| Nc1ccn([C@H]2CC[C@@H](CO)O2)c(=O)n1 | IIIB TIBO R82913 STR-2 (RT K103N) | RT-K103N | CEM | syncytia | 0.4 |
| C/C=C/CSc1cc(NC(=S)c2ccsc2C)ccc1Cl | UC38-RS (RT-Y181C) | RT-Y181C | CEM + CEM-SS | cytopathic effect / XTT | >10 |

The last 4 rows once more:

SMILES | strain | mutations | cell line | method | result
Cc1occc1C(=S)Nc1ccc(Cl)c(/C=N/OC(C)(C)C)c1 | Thiazolobenzimidazole-resistant (RT V108I) | RT-V108I | CEM + CEM-SS | cytopathic effect / XTT | 6
Cc1cc(O)cc(S(=O)(=O)c2cccc(N)c2C#N)c1 | - | RT-Y188C | HeLa + HELA CD4+ | β-galactosidase | 6.35
Nc1ccn([C@H]2CC[C@@H](CO)O2)c(=O)n1 | IIIB TIBO R82913 STR-2 (RT K103N) | RT-K103N | CEM | syncytia | 0.4
C/C=C/CSc1cc(NC(=S)c2ccsc2C)ccc1Cl | UC38-RS (RT-Y181C) | RT-Y181C | CEM + CEM-SS | cytopathic effect / XTT | >10